System: HIV-1
Settings: of CD45^+GFP^+ cells
Excerpt: HIV-1 infection spreads from cell to cell at high titer in complex lymphoid tissues with a specific hierarchy of T cell destruction and distinct kinetics in vivo (Douek et al., 2003). […] This mouse model takes advantage of the lack of functional B, T, and NK cells in Rag2^−/−γc^−/− mice and allows for improved engraftment of xenografts as well de novo intrathymic generation of human T cells (Baenziger et al., 2008; Mazurier et al., 1999). Briefly, CD34^+ hematopoietic stem and progenitor cells are enriched from cord blood of healthy donors by MACS and transplanted intrahepatically into irradiated, newborn Rag2^−/−γc^−/− mice (FIG. 63A). 2-4 months post-transplant, reconstitution of peripheral blood is assessed by flow cytometry, and mice with more that 5% hCD45^+ cells in peripheral blood are infected intraperitoneally (i.p.) with HIV-1 (FIG. 63A).
An aliquot of cells was maintained in culture with the subsequent addition of SCF, TPO, and Flt3L, and assessed for GFP-expression 72 hours post-transduction.
huRag2^−/−γc^−/− mice were generated as previously described^1. Briefly, fresh human cord blood was obtained with parent written informed consent from healthy full-term newborns (Department of Gynecology and Obstetrics, Ospedale San Giovanni, Bellinzona). […] Traggiai, E., et al. Development of a human adaptive immune system in cord blood cell-transplanted mice. […]

With “hT5Cyp: human TRIM5α fused at serine 322 to human cyclophilin A, SEQ ID NO:12” the “Pre-infection GFP^+ CD3” value was 0%.
